# Measurements: US20080171355A1, “DEVICE FOR TESTING THE EFFECTIVENESS OF DISINFECTANTS ON PROTOZOAN PARASITES” (priority 2006, published 2008)
# “And” between values parts separate entries of the source, which are not always exact repeats. Identical values can stand only once.
# Columns and labels:
# [1] = tested on: Oocysts of Eimeria acervulina; test: Effect of chemical disinfectants and UV light on sporulation rate (Table 16); type: cell-based; conditions: 2.5% 2 hours (20° C.); incubated at 30° C. (20 hrs); positive control 76.1
# [2] = tested on: Eimeria acervulina oocysts; test: Birds tested for infectivity of treated oocysts; type: in vivo, chicks; conditions: feces of 5 birds collected 5 days post inoculation
# [3] = tested on: unsporulated oocysts of Eimeria acervulina; test: Effect of liquid disinfectants on unsporulated oocysts (Example 7); type: cell-based; conditions: Trial 1, 3 hours treatment, no treatment 78
# [4] = tested on: unsporulated oocysts of E. acervulina; test: Sporulation of unsporulated E. acervulina oocysts after disinfectant treatment (Examples 3 and 4); conditions: for Sporulation rate (sporocyst stage only): control 69.8%
# [5] = Group 3, chlorine treated 25,000 ppm
# [6] = Group 4, chlorine treated 2,500 ppm
# [7] = 2,500 ppm Cl2, 144 hrs at 4° C., 20 hrs at 29.5° C., total of samples
# [8] = 25,000 ppm Cl2, 144 hrs at 4° C., 20 hrs at 29.5° C., total of samples
# [9] = fresh scrapings incubated overnight at 29.5° C., followed by 25,000 ppm Cl2, listed as Cl2
# [10] = fresh scrapings incubated overnight at 29.5° C., followed by 25,000 ppm Cl2, total
substance,measurement,setting,value
Chlorine,Sporulation Rate (%),[1],59.3%
same,"Infectivity, all pooled",[2]; [5],+ve
same,Oocysts in feces at 100× Magnification,[2]; [5],(~6/field)
same,Oocysts in feces at 100× Magnification (words),[2]; [5],Few
same,"Infectivity, all pooled",[2]; [6],+ve
same,Oocysts in feces at 100× Magnification,[2]; [6],(~100/field)
same,Oocysts in feces at 100× Magnification (words),[2]; [6],Numerous
same,Sporulation rates (%),[3]; 150 ppm,89%
same,Sporulation rates (%),[3]; 600 ppm,70%
same,Inhibiting sporulation (in words),"[4]; 2,500 ppm",highly effective
same,Sporulation rate (sporocyst stage only),"[4]; 2,500 ppm Cl2, 144 hrs at 4° C., 20 hrs at 29.5° C.",123/369 = 33.3% Sporocyst stage only
same,Spr. total count,[4]; [7],123 ^
same,Unspr. total count,[4]; [7],246
same,Sporulation rate (sporocyst stage only),"[4]; 25,000 ppm Cl2, 144 hrs at 4° C., 20 hrs at 29.5° C.",49/306 = 16% Sporocyst Stage only
same,Spr. total count,[4]; [8],49 ^
same,Unspr. total count,[4]; [8],257
same,Sporulation rate,"[4]; fresh scrapings incubated overnight at 29.5° C., followed by 25,000 ppm Cl2",367/476 = 77.1%
same,Spr. (sporulated oocysts counted per sample),[4]; [9],115 and 133 and 119
same,Unspr. (unsporulated oocysts counted per sample),[4]; [9],37 and 42 and 30
same,Spr. total count,[4]; [10],367
same,Unspr. total count,[4]; [10],109
same,Inhibiting sporulation (in words),"[4]; ~25,000 ppm",highly effective
